The target in this assay is H10MbtA^opt (MbtAtb) (Mycobacterium tuberculosis (strain ATCC 25618 / H37Rv), UniProt P71716). As to the kind of experiment: biochemical.

The chains behind the UniProt entries cited, without tags or fusion partners.
UniProt P71716, whole entry, added parts left off: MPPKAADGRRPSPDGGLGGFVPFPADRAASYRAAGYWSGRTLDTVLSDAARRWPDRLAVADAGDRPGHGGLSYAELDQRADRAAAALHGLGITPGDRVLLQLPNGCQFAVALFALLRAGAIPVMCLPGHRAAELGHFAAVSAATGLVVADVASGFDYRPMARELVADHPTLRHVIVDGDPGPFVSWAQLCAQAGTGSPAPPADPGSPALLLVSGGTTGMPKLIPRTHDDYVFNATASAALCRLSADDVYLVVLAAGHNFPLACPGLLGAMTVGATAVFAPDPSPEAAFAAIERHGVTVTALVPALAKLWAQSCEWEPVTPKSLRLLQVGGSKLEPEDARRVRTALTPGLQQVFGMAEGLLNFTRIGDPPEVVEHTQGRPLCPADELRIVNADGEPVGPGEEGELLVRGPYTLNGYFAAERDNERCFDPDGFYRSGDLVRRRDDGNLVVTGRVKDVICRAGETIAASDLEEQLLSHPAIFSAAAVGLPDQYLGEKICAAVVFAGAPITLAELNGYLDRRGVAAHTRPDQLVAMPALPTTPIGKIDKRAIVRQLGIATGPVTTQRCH

The compound `Nc1ncnc2c1ncn2[C@@H]1O[C@H](COS(N)(=O)=O)[C@@H](O)[C@H]1O` [compound 7, AMS] yielded an IC50 of over 1000 µM.

The term IC50 denotes the point on the concentration scale where inhibition reaches its midpoint. Higher therefore signals lower potency.

Source of the values: patent publication US12435088B2, “Salicyl-adenosinemonosulfamate analogs and uses thereof” (priority 2018, dated 2025).
